Laboratory results reported in patent US7291478B1.

Amino acid sequences for entries named in this document (tags omitted). A change or cut given only in a name is not applied to a line headed by its entry.
UniProt Q45087: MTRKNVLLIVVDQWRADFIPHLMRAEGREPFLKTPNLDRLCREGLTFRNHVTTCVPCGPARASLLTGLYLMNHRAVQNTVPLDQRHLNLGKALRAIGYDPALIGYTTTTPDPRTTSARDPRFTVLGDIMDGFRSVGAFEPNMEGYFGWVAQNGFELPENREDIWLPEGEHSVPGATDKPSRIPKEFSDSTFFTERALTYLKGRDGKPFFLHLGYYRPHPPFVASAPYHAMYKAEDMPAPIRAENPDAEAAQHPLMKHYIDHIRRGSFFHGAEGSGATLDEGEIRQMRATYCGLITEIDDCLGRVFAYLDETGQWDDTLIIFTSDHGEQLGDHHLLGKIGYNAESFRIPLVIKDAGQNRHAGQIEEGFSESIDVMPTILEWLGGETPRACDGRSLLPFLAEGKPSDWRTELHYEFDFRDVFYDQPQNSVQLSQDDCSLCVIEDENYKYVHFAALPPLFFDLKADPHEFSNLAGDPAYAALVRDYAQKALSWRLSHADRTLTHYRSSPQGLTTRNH

Each substance was assayed against phosphonate ester hydrolase (PEH) (Trinickia caryophylli, UniProt Q45087). Details: synthetic phosphonate ester 10 mM, 50 mM BTP pH 9.0, 1 mM MnCl2, 2 μl PEH extract, about 30° C.; GC-FPD of TMS derivatives.
Benzyl phenylphosphonate was tested, and the “Degraded by PEH” value was “YES”. For Butyl butylphosphonate, the “Degraded by PEH” value was “YES”. In the case of Cetyl phenylphosphonate, the “Degraded by PEH” value is reported as “YES”. Cyclohexyl phenylphosphonate was tested, and the “Degraded by PEH” value was “YES”. In the case of Ethyl allylphosphonate, the “Degraded by PEH” value is reported as “YES”. With Ethyl benzoylphosphonate the “Degraded by PEH” value was “YES”. With Ethyl benzylphosphonate the “Degraded by PEH” value was “YES”. Ethyl vinylphosphonate was tested, and the “Degraded by PEH” value was “YES”. Isopropyl allylphosphonate was tested, and the “Degraded by PEH” value was “YES”. Isopropyl benzylphosphonate was tested, and the “Degraded by PEH” value was “YES”. With Methyl phenylphosphonate the “Degraded by PEH” value was “YES”. In the case of Propyl phenylphosphonate, the “Degraded by PEH” value is reported as “YES”. For p-Nitrophenyl phenylphosphonate, the “Degraded by PEH” value was “YES”.
